The entries are a selection whose mix differs from that of the whole data set. Calls of active or inactive are those of the source. Rule as the data show it: active = inhibition above about 25%; inactive = the rest.
Experiment: repression of VP16-driven luciferase reporter – cell-based, luminescence, high throughput, counter-screen for SRC1 inhibitor project (AID 588824)
Settings: cell-based VP16 transactivation luciferase luminescence; at 3.6 µM; hits give high values
In the case of `CC(C)c1ccc(OP(=O)(Nc2ccccn2)Oc2ccccc2F)cc1` (stereo unspecified), the inhibition is reported as inactive: 7.71%.
